Pooled drug test results. Numbers come from NIAID ChemDB, via PubChem.

Shared fields: growth or infection tests; species: Mycobacterium tuberculosis

ECn: concentration that inhibits the pathogen or its effect by n%. MIC50, MIC90 and the like: level of inhibition, or share of isolates inhibited. MIC bound: limit read from a one-dose screen. Percent inhibition refers to the dose given; in toxicity tests it is the harm to the cells. Conditions beyond the fields shown may differ between rows. a–b is a range or a potency band. An empty or dashed field is not shown.

compound,measure,changes,tested at,method,strain,result
CN1CCN(c2cc3c(cc2F)c(=O)c(C(=O)O)cn3-c2ccc(F)cc2)CC1,MIC50,-,-,-,-,2.7 µg/mL
O=C(NNc1nc(Nc2ccccn2)nc(Nc2ccccc2O)n1)c1ccncc1,inhibition,-,0.1229 µM,BACTEC / radiometric,H37Rv,71%
CCOC(=O)C1CC(=O)C2/C(=C(\O)c3ccccc3)C=C([N+](=O)[O-])C1C2[N+](=O)[O-],MIC bound,-,-,resazurin,H37Rv,>6.25 µg/mL
O=C(NNc1nc(Nc2cccc(Cl)c2)nc(Nc2ccccn2)n1)c1ccncc1,inhibition,-,0.055 µM,BACTEC / radiometric,H37Rv,82%
N#C/C(=C/c1ccc(Cl)cc1)n1nc2ccccc2n1,EC50,-,-,-,-,>12.5 µg/mL
COC(=O)c1nn2c(=O)c3cccc4cccc(c43)c2c1C(=O)OC,inhibition,-,6.25 µg/mL,resazurin,H37Rv,30%
N#C/C(=C\c1ccc(Br)cc1)n1nnc2ccccc21,MIC,-,-,-,-,12.5 µg/mL
COc1cccc(CSc2ncnc3nc[nH]c23)c1,MIC,-,-,-,H37Ra,>12.8 µg/mL
Cn1c(=O)c2c3oc(=O)cc(O)c3c(=O)n3c4ccccc4n(c1=O)c23,inhibition,-,12.5 µg/mL,BACTEC,H37Rv,7%
CCCCCCCCCCCCCCCCN[C@@H](CC(=O)OCC)[C@H]1O[C@@H]2OC(C)(C)O[C@@H]2[C@H]1OC,MIC,-,-,-,H37Ra,3.12 µg/mL
CCCCCCCC(=O)C1CC(C)C(O)C(C(=O)O)C1,MIC90,-,-,broth dilution,-,7.1 µg/mL
CC[C@@H](C)N1CCN(c2cc(=O)c3nc4c(oc3c2)c2c(=O)c3c(O)c(C)c5c(c34)=C(O)[C@@](C)(O/C=C/[C@H](OC)[C@@H](C)[C@@H](OC(C)=O)[C@H](C)[C@H](O)[C@H](C)[C@@H](O)[C@@H](C)/C=C/C=C(/C)C(=O)N2)O5)CC1,MIC50,-,-,-,6 strains (rifampicin-resistant),≤0.0125 µg/mL
CCOC(=O)c1cc(-c2ccc(Cl)cc2)n(CC(=O)N/N=C/c2ccccc2)c1C,MIC,-,-,-,H37Rv,>6.25 µg/mL
CC1CCc2c(c3c(=O)[nH]c(=O)[nH]c3oc2=O)C1,MIC bound,-,-,BACTEC,H37Rv,>12.5 µg/mL
CN1C(NC(=O)c2ccc(Cl)nc2)=NS(=O)(=O)c2cc(Cl)ccc21,MIC,-,-,-,Clinical isolates drug-sensitive,>16 µg/mL
CCC[C@@H](O)C1=C[C@@H](OC(C)C)O[C@H](COC(=O)C(C)(C)C)C1=O,MIC90,-,-,broth dilution,-,73 µg/mL
COc1ccc2c(c1)OCC(C1C(=O)c3ccc(OC)cc3OC1c1ccccc1)C2=O,inhibition,-,12.5 µg/mL,-,-,0%
N#C/C(=C\c1ccc(C(F)(F)F)cc1)n1nc2ccccc2n1,EC50,-,-,-,-,>12.5 µg/mL
NNC(=O)c1ccncc1,MIC,-,-,-,MTB13 (INH-R),>4 µg/mL
COc1ccc(C2CC(=O)c3cc(-c4c(OC)cc5c(c4OC)C(=O)CC(c4ccc(OC)cc4)O5)c(OC)cc3O2)cc1,inhibition,-,12.5 µg/mL,-,-,2%
O=S1(=O)CS(=O)(=O)OCCO1,MIC bound,-,-,BACTEC,H37Rv,>12.5 µg/mL
CCN1C(NNC(=O)c2ccncc2)=NS(=O)(=O)c2ccccc21,MIC,-,-,-,Clinical isolates drug-sensitive,>16 µg/mL
O=C(c1ccncc1)N1N=C(c2ccco2)CC1(O)C(Cl)(Cl)Cl,MIC,-,-,-,RGH103,>268 µM
CCCCCCCCCCCC1=NC(C)(CO)CO1,MIC bound,-,-,BACTEC,H37Rv,>12.5 µg/mL
CCOC(=O)c1[nH]c(C)c(/C=N\NC(=O)c2ccncc2)c1C,inhibition,-,6.25 µg/mL,-,H37Rv,97%
N#C/C(=C\c1ccccc1)n1nnc2ccccc21,EC50,-,-,-,-,2 µg/mL
Oc1c(Cl)c(Cl)c(Cl)c2cccnc12,MIC bound,-,-,BACTEC,H37Rv,>6.25 µg/mL
CCOC(=O)CC(N)[C@H]1O[C@@H]2OC(C)(C)O[C@@H]2[C@H]1OC,MIC,-,-,-,H37Ra,>25 µg/mL
c1ccc(CSc2ccncc2)cc1,MIC90,-,-,-,H37Rv,>6.25 µg/mL
CCOC(=O)c1cc(-c2ccc(Cl)cc2)n(CCC(=O)N/N=C/c2ccccc2O)c1C,inhibition,-,6.25 µg/mL,-,H37Rv,96%
N#C/C(=C\c1ccc(C(F)(F)F)cc1)n1nnc2ccccc21,EC50,-,-,-,-,<12.5 µg/mL
COc1ccc(CSc2ncccn2)cc1,MIC,-,-,-,H37Ra,>12.8 µg/mL
O=C(c1ccncc1)N1N=C(c2ccco2)CC1(O)C(F)(F)F,MIC,-,-,-,RGH102,38.46 µM
CCN1C(NNC(=O)c2cccnc2)=NS(=O)(=O)c2ccccc21,MIC,-,-,-,Clinical isolates drug-sensitive,>16 µg/mL
CN[C@@H]1[C@H](O[C@H]2[C@H](O[C@H]3[C@H](O)[C@@H](O)[C@H](N=C(N)N)[C@@H](O)[C@@H]3N=C(N)N)O[C@@H](C)[C@]2(O)C=O)O[C@@H](CO)[C@H](O)[C@H]1O,MIC,-,-,-,MTB17 (INH RIF-R),0.3 µg/mL
CCC(C)N1CCN(c2cc(=O)c3nc4c(oc3c2)c2c(=O)c3c(O)c(C)c5c(c34)=C(O)[C@@](C)(O/C=C/[C@H](OC)[C@@H](C)[C@@H](OC(C)=O)[C@H](C)[C@H](O)[C@H](C)[C@@H](O)[C@@H](C)/C=C/C=C(/C)C(=O)N2)O5)CC1,MIC90,-,-,-,6 strains (rifampicin-resistant),0.025 µg/mL
CCOC(=O)/C(C#N)=C/c1ccc(-c2cc(C(F)(F)F)cc(C(F)(F)F)c2)o1,MIC bound,-,-,BACTEC,H37Rv,>12.5 µg/mL
CNc1ccccc1C(=O)O[C@@H]1[C@@H](C)[C@]2(O)[C@@H]3C=C(C)C(=O)[C@H]3CC(C)=C[C@H]2[C@]2(C)C(C)(C)[C@]12OC(C)=O,MIC,-,-,-,-,50 µg/mL
CC(=O)Oc1c(C)c(OC(C)=O)c2c(c1C(C)=O)OC1CC(=O)C(C(C)=O)=C(O)C21C,MIC bound,-,-,BACTEC,H37Rv,>12.5 µg/mL
CC1=NN(C(=O)c2ccncc2)C(O)(C(F)(F)F)C1,MIC,-,-,-,RGH103,366.3 µM
N#C/C(=C\c1ccc(F)cc1)n1nc2ccccc2n1,EC50,-,-,-,-,>12.5 µg/mL
CC[C@H](CC[C@@H](C)[C@H]1CC[C@H]2[C@@H]3C(=O)C=C4C[C@@H](O)CC[C@]4(C)[C@H]3CC[C@]12C)C(C)C,MIC90,-,-,broth dilution,-,4.6 µg/mL
CCn1cc(C(=O)O)c(=O)c2cc(F)c(N3CCNCC3)nc21,MIC50,-,-,-,-,3 µg/mL
O=C(NN1CCN(c2cc3c(cc2F)c(=O)c(C(=O)O)cn3C2CC2)CC1)c1ccc(Cl)cc1,MIC90,-,-,fluorescence,H37Rv,>50 µM
C[C@@H]1ON2CCC[C@H]2[C@H]1C(=O)N1C2CC3CCC2(CS1(=O)=O)C3(C)C,inhibition,-,12.5 µg/mL,BACTEC,H37Rv,0%
CC(C)=CCOc1c2ccoc2cc2oc(=O)ccc12,MIC100,Isoniazid-resistant,-,resazurin,H37Rv clinical isolate CRY1,200 µg/mL
NNC(=O)c1ccncc1,MIC,Isoniazid-resistant,-,resazurin,INH-R2,>27 µg/mL
OB1N=C(c2cnccn2)Nc2ccccc21,MIC,-,-,-,H37Rv,128 µg/mL
C=C1C(=O)[C@@]23CC[C@H]4C(C)(CCC[C@@]4(C)C(=O)OC)[C@@H]2CC[C@]1(O)C3,MIC,-,-,-,KM-R,6.3 µg/mL
O=C(O)c1cn(C2CC2)c2cc(N3CCN(/N=C/c4ccc([N+](=O)[O-])cc4)CC3)c(F)cc2c1=O,MIC90,-,-,fluorescence,H37Rv,8.85 µM
CCCCCCCCCCCCNC(CC(=O)O)[C@H]1O[C@@H]2OC(C)(C)O[C@@H]2[C@H]1OC,MIC,-,-,-,H37Ra,>25 µg/mL
C=CC(C)(C)c1c2c(c(OC)c3ccc(=O)oc13)C(=O)CC(C)(C)O2,MIC,-,-,-,-,50 µg/mL
O=C(NNS(=O)(=O)c1ccccc1)c1ccc([N+](=O)[O-])cc1,MIC bound,-,-,BACTEC,H37Rv,>12.5 µg/mL
Cc1ccc(/C=C(\C#N)n2nnc3ccccc32)cc1,EC50,-,-,-,-,<12.5 µg/mL
CN1C(NNC(=O)c2ccc(Cl)nc2)=NS(=O)(=O)c2ccccc21,MIC,-,-,-,Clinical isolates drug-resistant,>16 µg/mL
Clc1cccc(Sc2nc(Cl)nc3nc[nH]c23)c1,MIC90,-,-,-,H37Rv,>6.25 µg/mL
CN1C(NNC(=O)c2cccnc2)=NS(=O)(=O)c2ccc(Cl)cc21,MIC,-,-,-,H37Rv (ATCC 27294),4 µg/mL
Cc1cn([C@H]2C=C[C@@H](CO)O2)c(=O)[nH]c1=O,inhibition,-,12.5 µg/mL,BACTEC,H37Rv,1%
Cc1ccc(C)c(Sc2ccncc2)c1,MIC,-,-,-,H37Ra,>12.8 µg/mL
CO[C@H]1/C=C/O[C@@]2(C)Oc3c(C)c(O)c4c(O)c(c(/C=N/N5CCN(C)CC5)c(O)c4c3C2=O)NC(=O)/C(C)=C\C=C\[C@H](C)[C@H](O)[C@@H](C)[C@@H](O)[C@@H](C)[C@H](OC(C)=O)[C@@H]1C,MIC,katG mutant isoniazid resistant,-,resazurin,INH-R1,0.016 µg/mL
O=C1CN2Cc3cc(N4CCOCC4)ccc3N=C2N1,inhibition,-,6.25 µg/mL,resazurin,H37Rv,14%
CCOC(=O)CCCNC(CC(=O)OCC)[C@H]1O[C@@H]2OC(C)(C)O[C@@H]2[C@H]1OCc1ccccc1,MIC,-,-,-,H37Ra,>25 µg/mL
O=C(CC1(O)C(=O)Nc2ccccc21)c1cccc([N+](=O)[O-])c1,inhibition,-,6.25 µg/mL,resazurin,H37Rv,8%
CN1C(NNC(=O)c2ccncc2)=NS(=O)(=O)c2ccccc21,MIC,-,-,-,Clinical isolates drug-resistant,>16 µg/mL
Clc1nc(Sc2ncc[nH]2)c2[nH]cnc2n1,inhibition,-,6.25 µg/mL,-,H37Rv,5%
O=C(NNc1nc(Nc2ccccc2)nc(Nc2ccccn2)n1)c1ccncc1,inhibition,-,0.711 µM,BACTEC / radiometric,H37Rv,71%
CC1(O)Oc2c(cc(C(C)(C)C)cc2C(C)(C)C)C1=O,inhibition,-,12.5 µg/mL,BACTEC,H37Rv,42%
O=C(O)c1cn(C2CC2)c2cc(N3CCN(Nc4ccc(OC(F)(F)F)cc4)CC3)c(F)cc2c1=O,MIC90,-,-,fluorescence,H37Rv,7.35 µM
O=c1[nH]c2cccnc2[nH]c1=O,MIC bound,-,-,resazurin,H37Rv,>6.25 µg/mL
Cc1c(F)c(N2CCNC(C)C2)cc2c1c(=O)c(C(=O)O)cn2C1CC1,MIC90,-,-,-,33 clinical isolates,1 µg/mL
O=C(NNc1nc(Nc2cccc([N+](=O)[O-])c2)nc(Nc2ccccn2)n1)c1ccncc1,inhibition,-,0.1109 µM,BACTEC / radiometric,H37Rv,72%
NNC(=O)c1ccncc1,MIC,-,-,resazurin,RifR,50–100 µg/mL
COc1cccc(Nc2nc(NNC(=O)c3ccncc3)nc(Nc3ccccn3)n2)c1,inhibition,-,0.689 µM,BACTEC / radiometric,H37Rv,83%
CC1C(=O)OC(C(Cl)(Cl)Cl)N1C,MIC bound,-,-,BACTEC,H37Rv,>12.5 µg/mL
O=C(NN1CCN(c2cc3c(cc2F)c(=O)c(C(=O)O)cn3C2CC2)CC1)c1ccc(C(F)(F)F)cc1,MIC90,-,-,fluorescence,H37Rv,>50 µM
CCOC(=O)c1c(C)[nH]c(/C=N\NC(=O)c2ccncc2)c1C,MIC,-,-,-,H37Rv,0.78 µg/mL
COc1ccccc1N1CCCSC1=Nc1ccccc1,MIC bound,-,-,BACTEC,H37Rv,>12.5 µg/mL
CC(C)=CC1C[C@](C)(O)C2C3CCC4C(CC=C5C(C)(C)[C@@H](O[C@@H]6OC[C@@H](O)[C@H](OC7O[C@H](CO)[C@@H](O)[C@H](OC(=O)/C=C/c8ccc(O)cc8)[C@H]7O)[C@H]6O[C@@H]6O[C@@H](CO)[C@H](O)[C@H]6O)CC[C@@]54C)C34CC2(OO4)O1,MIC,-,-,-,-,10 µg/mL
O=C(O)C1=C(C(=O)O)C2CCCC3C4CCCCC4N(N1)C23,inhibition,-,6.25 µg/mL,resazurin,H37Rv,5%
O=C(NC1=NS(=O)(=O)c2ccccc2N1c1ccccc1)c1ccc(Cl)nc1,MIC,-,-,-,Clinical isolates drug-resistant,>16 µg/mL

A second listing of 7 rows from above:

CCOC(=O)c1cc(-c2ccc(Cl)cc2)n(CCC(=O)N/N=C/c2ccccc2O)c1C ; measure: inhibition ; tested at: 6.25 µg/mL ; strain: H37Rv ; result: 96%
CO[C@H]1/C=C/O[C@@]2(C)Oc3c(C)c(O)c4c(O)c(c(/C=N/N5CCN(C)CC5)c(O)c4c3C2=O)NC(=O)/C(C)=C\C=C\[C@H](C)[C@H](O)[C@@H](C)[C@@H](O)[C@@H](C)[C@H](OC(C)=O)[C@@H]1C ; measure: MIC ; changes: katG mutant isoniazid resistant ; method: resazurin ; strain: INH-R1 ; result: 0.016 µg/mL
c1ccc(CSc2ccncc2)cc1 ; measure: MIC90 ; strain: H37Rv ; result: >6.25 µg/mL
CC(C)=CCOc1c2ccoc2cc2oc(=O)ccc12 ; measure: MIC100 ; changes: Isoniazid-resistant ; method: resazurin ; strain: H37Rv clinical isolate CRY1 ; result: 200 µg/mL
COc1cccc(CSc2ncnc3nc[nH]c23)c1 ; measure: MIC ; strain: H37Ra ; result: >12.8 µg/mL
O=C(O)c1cn(C2CC2)c2cc(N3CCN(/N=C/c4ccc([N+](=O)[O-])cc4)CC3)c(F)cc2c1=O ; measure: MIC90 ; method: fluorescence ; strain: H37Rv ; result: 8.85 µM
N#C/C(=C\c1ccc(Br)cc1)n1nnc2ccccc21 ; measure: MIC ; result: 12.5 µg/mL